# Article PMC8509827, “An ArsR Transcriptional Regulator Facilitates Brucella sp. Survival via Regulating Self and Outer Membrane Protein” (2021)
# Target: His-tagged ArsR6 (Brucella suis S2)
substance,measurement,value
His-tagged ArsR6 (natural protein),stoichiometry N,2
